Results published in publication PMC7667037.
For at least one entry, the source does not settle the construct or the ends of the probe.

Columns and labels:
[1] = system: LmiA (Z4267); test: EMSA; conditions: 5 mM Mg2+; EMSA: 1 nM probe, 1 mM Tris-HCl pH 7.5, 0.1 mM EDTA, 0.2 mM DTT, 5 mM MgCl2, 10 mM KCl, 20 min 37 C; PhoP with 0.1 M acetyl phosphate; recombinant protein; protein details: N-terminal 6xHis (pET-28a); label: DIG; probe letters rebuilt from the primers and the genome
[2] = system: LmiA (Z4267); test: competition with a labelled probe; conditions: labeled PLEE1, 10-100 nM competitor; EMSA: 1 nM probe, 1 mM Tris-HCl pH 7.5, 0.1 mM EDTA, 0.2 mM DTT, 5 mM MgCl2, 10 mM KCl, 20 min 37 C; PhoP with 0.1 M acetyl phosphate; recombinant protein; protein details: N-terminal 6xHis (pET-28a); probe letters rebuilt from the primers and the genome

| Sequence | binding result [1] | binding result [2] |
| --- | --- | --- |
| TCCTGGGGATTCACTCGCTTGCCGCCTTCCTGTAACTCGAATTAAGTAGAGTATAGTGAAACGGTTCAGCTTGGTTTTTATTCTGTTTTATTTGTTTATGCAATGAGATCTATCTTATAAAGAGAAACGCTTAACTAAATGGAAATGCAATTATTAAAGTCGTTTGTTAACGAGATGATTTTCTTCTATATCATTGATTTTAAATGGATTTTAAAAATATATGATTTTTTTGTTGACATTTAATGATAATGTATTTTACACATTAGAAAAAAGAGAATAATAACATTTTAAGGTGGTTGTTTGATGAAATAGATGTGTCCTAATTTGATAGATAAACGTTATCTCACATAATTTATATCATTTGATTAATTGTTGGTCCTTCCTGATAAGGTCGCTAATAGCTTAAAATATTAAAGCATGCGGAGATTATTTATTATGA (double strand) [PLEE1] | binds |  |
| TCCTGGGGATTCACTCGCTTGCCGCCTTCCTGTAACTCGAATTAAGTAGAGTATAGTGAAACGGTTCAGCTTGGTTTTTATTCTGTTTTATTTGTTTATGCAATGAGATCTATCTTATAAAGAGAAACGCTTAACTAAATGGAAATGCAATTATTAAAGTCGTTTGTTAACGAGATGATTTTCTTCTATATCATTGATTTTAAATGGATTTTAAAAATATATGATTTTTTTGTTGACATTTAATGATAATGTATTTTACACATTAGAAAAAAGAGAATAATAACATTTTAAGGTGGTTGTTTGATGAAATAGATGTGTCCTAATTTGATAGATAAACGTTATCTCACATAATTTATATCATTTGATTAATTGTTGGTCCTTCCTGATAAGGTCGCTAATAGCTTAAAATATTAAAGCATGCGGAGATTATTTATTATGA (double strand) [PLEE1 unlabeled competitor] |  | binds |
